From PubChem BioAssay AID1706 (The Scripps Research Institute Molecular Screening Center, 2009)
The entries are a selection whose mix differs from that of the whole data set. Active and inactive are the calls of the source. Cut-off read from the data, not from the text of the source: active = inhibition above about 12%; inactive = the rest.

target: Replicase polyprotein 1ab (Severe acute respiratory syndrome coronavirus) (UniProt P0C6X7); experiment: blockers of SARS 3CLpro peptide cleavage – biochemical, quenched FRET, primary screen (AID 1706); conditions: recombinant SARS-CoV 3CLpro, at 6 µM, active compounds read high

Row | Structure (SMILES) | inhibition
1 | CC(C)(C)C(=O)NC(Sc1ncccn1)C(Cl)(Cl)Cl (centres undefined) | inactive: -5.83%
2 | Clc1n[nH]nc1-c1nn[nH][15n]1 | inactive: -0.87%
3 | CCOP(=O)(Nc1ccc(C)cn1)OCC | inactive: -1.65%
4 | CCOP(=O)(NC(=NC(C)c1ccccc1)NC(C)c1ccccc1)OCC (centres undefined) | inactive: -1.35%
5 | O=P1(Nc2ccccn2)COc2ccccc2OC1 | inactive: -4.44%
6 | CCC1=CC2Cc3nc4ccc(Cl)cc4c(N)c3C(C1)C2 (centres undefined) | inactive: -5.84%
7 | CCC(C)N(CC(C)C)C(=S)SC(NC(C)=O)C(Cl)(Cl)Cl (centres undefined) | inactive: -5.01%
8 | CCOC(=O)c1ccc(NC(=O)C(C)(CCl)SC)cc1 (centres undefined) | inactive: -1.31%
9 | O=C(OC1CN2CCC1CC2)c1cccc([N+](=O)[O-])c1 (centres undefined) | inactive: 2.65%
10 | O=C(Nc1ccncc1[N+](=O)[O-])c1ccc([N+](=O)[O-])cc1[N+](=O)[O-] | inactive: 1.74%
11 | O=C(COc1ccccc1)OC1CN2CCC1CC2 (centres undefined) | inactive: 1.34%
12 | COP1(=S)c2c(C)nn(CCC#N)c2N=C(c2ccc(F)cc2)N1C (centres undefined) | inactive: 2.98%
13 | O=[N+]([O-])c1ccc(Nc2ccc(Oc3ccc([N+](=O)[O-])cc3[N+](=O)[O-])cc2)c([N+](=O)[O-])c1 | inactive: 2.14%
14 | O=P(Nc1ccccn1)(c1cccc2ccccc12)c1cccc2ccccc12 | inactive: 3.65%
15 | Cc1cc(SC(NC=O)C(Cl)(Cl)Cl)ncn1 (centres undefined) | inactive: 0.53%
16 | CCOC(=O)Nc1cccc([As](=O)(O)O)c1 | inactive: -3.2%
17 | Cc1cc(SC(NC(=O)c2ccccc2)C(Cl)(Cl)Cl)nc(C(C)C)n1 (centres undefined) | inactive: 5.86%

Row | Structure (SMILES) | inhibition
18 | CCCCOc1ccc(C(=O)NCC2(N3CCCCC3)CCCCC2)cc1OC | inactive: 0.23%
19 | CCOC(=O)Nc1ccc([As](=O)(O)O)c(O)c1 | inactive: 0.21%
20 | O=[N+]([O-])c1cc([N+](=O)[O-])c(-c2ccn[nH]2)s1 | inactive: -4.74%
21 | CCN(CC)C(=S)SC(NC=O)C(Cl)(Cl)Cl (centres undefined) | inactive: -0.85%
22 | CC(C)NC(=O)NP(=O)(Oc1ccccc1)Oc1ccccc1 | inactive: 0.2%
23 | CC(C)c1ccc(OP(=O)(Nc2ccccn2)Oc2ccccc2F)cc1 (centres undefined) | inactive: -1.04%
24 | ClCCSc1nnc(-c2cccnc2)o1 | inactive: -8.55%
25 | Cc1ccc2nc3c(c(C)c2c1)CC(C(Cl)Cl)S3 (centres undefined) | inactive: 4.03%
26 | Cc1ccc(OP(=O)(Nc2ccc([N+](=O)[O-])cn2)Oc2ccc(C)cc2)cc1 | inactive: -0.5%
27 | O=[As](O)(c1ccc(O)cc1)c1ccccc1O | inactive: -3.7%
28 | C[As](=O)(O)c1cccc(C(=O)O)c1 | inactive: 0.34%
29 | COc1ccc(N/C(=N/P(=O)(N2CCOCC2)N2CCOCC2)N2CCOCC2)cc1 | inactive: -0.9%
30 | COc1cc(I)ccc1[As](=O)(O)O | inactive: -0.5%
31 | COc1ccc2nc(NP(=O)(c3ccccc3)c3ccccc3)sc2c1 | inactive: -1.21%
32 | Cc1cc(=O)[nH]c(N[N+](=O)[O-])n1 | inactive: 4.69%
33 | O=C(OC1CN2CCC1CC2)C12CC3CC(CC(C3)C1)C2 (centres undefined) | inactive: 1.42%
34 | Cc1c2c(nc3ccccc13)SC(C(Cl)Cl)C2 (centres undefined) | inactive: -3.73%
